Measurements from ChEMBL document CHEMBL1828562, “Aryl H-phosphonates 17: (N-aryl)phosphoramidates of pyrimidine nucleoside analogues and their synthesis, selected properties, and anti-HIV activity” (J Med Chem, 2011).

Tests used:
[1] = Selectivity index, ratio of CC50 for human CEM-T4 cells to EC50 for HIV1 infected human CEM-T4 cells
[2] = system: Human immunodeficiency virus 1; assay: Antiviral activity against HIV1 infected in human CEM-T4 cells assessed as reduction in viral protein p24 production preincubated for 24 hrs measured after 8 days by MTT assay; conditions: for EC50: cem-t4

In the case of `Cc1cn([C@H]2C[C@H](N=[N+]=[N-])[C@@H](COP(=O)(O)Nc3ccccn3)O2)c(=O)[nH]c1=O`, the Ratio CC50/EC50 [1] is reported as > 83500, the EC90 [2] is reported as 0.029 µM and the EC50 [2] is reported as 0.0024 µM.

For `O=c1ccn([C@H]2CC[C@@H](COP(=O)(O)Nc3ccccn3)O2)c(=O)[nH]1`, the Ratio CC50/EC50 [1] was < 3, the EC90 [2] was > 10 µM and the EC50 [2] was > 10 µM.
